Test results taken from patent publication US7148237B2, “Nitrogen-containing heteroaryl compounds having HIV integrase inhibitory activity” (Shionogi & Co., Ltd., priority 2001, dated 2006).
In brackets after ≈: the same amount, converted by molar mass.

Biological target: integrase (Human immunodeficiency virus type 1 group M subtype B, UniProt P04585)
Experiment: Integrase inhibition assay (microtiter plate strand transfer, substrate DNA/target DNA, anti-digoxigenin ELISA readout)
Assay type: biochemical
Conditions: concentration of the compound at percent inhibition 50%; OD at 405 nm
Experimental: The inhibitory activities against integrase of the compounds in the present invention have been determined by the assay described below.
Substrate DNA and target DNA, which sequences were indicated below, were synthesized by Amersham Pharmacia Biotech and dissolved in KTE buffer (composition: 100 mM KCl, 1 mM EDTA, 10 mM Tris-HCl (pH 7.6)) at concentration of 2 pmol/μl and 5 pmol/μl, respectively. The DNA solutions were annealed with each complement by slowly cooling after heating.
Streptavidin, obtained from Vector Laboratories, was dissolved in 0.1 M carbonate buffer (composition: 90 mM Na2CO3, 10 mM NaHCO3) at concentration of 40 μg/ml. After coating each well of microtiter plates (obtained from NUNC) with 50 μl of the above solution at 4° C. over night, each well was washed twice with PBS (composition: […], 0.27 mM KCl, 0.43 mM Na2HPO4, 0.14 mM KH2PO4) and blocked with 300 μL of 1% skim milk in PBS for 30 min. Additionally, each well was washed twice with PBS and added 50 μl of substrate DNA solution (2 pmol/μl). The microtiter plates were kept at room temperature for 30 min. Then, each well was washed twice with PBS and once with H2O. […]
The microtiter plates were incubated at 30° C. for 1 hour. […] The optical density (OD) at 405 nm of each well was measured and the percent inhibition was determined by the following expression. […]

In the case of `CCOC(=O)c1ccc2cc(Cc3ccc(F)cc3)cnc2c1O`, the IC50 is reported as 0.22 µg/mL (≈ 0.676 µM).
